Results of unrelated studies side by side (data: NIAID ChemDB).

Common to all: whole-cell or culture tests; species: Aspergillus niger; read-out: MIC

Lines come from different laboratories, so protocols vary. An empty or dashed field is not shown.

structure	setting	read by	strain or isolate	result
OB1OCc2cc(F)ccc21		turbidity		<0.9 µg/mL
CC(=O)O[C@H]1CC[C@@]2(C)C(=CCC3C4CCC(C(=O)/C=C/c5ccc(F)cc5)[C@@]4(C)CCC32)C1		turbidity	MTCC 281	300 µg/mL
CC(=O)OC1CC(C)CCC1C(C)C				10.47 µM
C=CCO/N=C/c1ccc(OP2(Oc3ccc(/C=N/OC=C)cc3OC)=NP(Oc3ccc(/C=N/OCC=C)cc3OC)(Oc3ccc(/C=N/OCC=C)cc3OC)=NP(Oc3ccc(/C=N/OCC=C)cc3OC)(Oc3ccc(/C=N/OCC=C)cc3OC)=N2)c(OC)c1		agar diffusion / agar		>100 µg/mL
c1ccc(CSc2cccc3cccnc23)nc1		broth dilution / visual reading		>495 µM
CC1CCC(C(C)C)C(OC(=O)c2ccc(Cl)cc2Cl)C1				11.22 µM
O=c1[nH][nH]c2c1C(c1ccc(F)cc1)CC(Cc1ccc3ccccc3c1)=C2		agar diffusion		12.5 µg/mL
CC1CCC(C(C)C)C(OC(=O)CCl)C1				6.76 µM
CC(C)Cc1ccc(CC2=Cc3[nH][nH]c(=O)c3C(c3ccccc3)C2)cc1		agar diffusion		100 µg/mL
O=c1cc(Cc2c3ccccc3nc3ccccc23)c2cc(Cl)ccc2o1		agar diffusion / agar		100 µg/mL
COc1ccc(C(=O)OC2CC(C)CCC2C(C)C)cc1				9.12 µM
O=C(N/N=C/c1cc(Br)cc(Br)c1O)c1ccccc1F		MTT / broth dilution		>50 µg/mL
N#CSc1ccc2nc(NC(=O)CN3C(=O)S/C(=C/c4cccc(Oc5ccccc5)c4)C3=O)sc2c1		broth dilution / visual reading	MTCC 282	1000 µg/mL
CC1CCC(C(C)C)C(OC(=O)c2ccc(Cl)cc2)C1				8.91 µM
CC(C)Cc1ccc(CC2=Cc3[nH][nH]c(=O)c3C(c3ccc(Cl)cc3)C2)cc1		agar diffusion		100 µg/mL
N#Cc1c(-c2cccc(Cl)c2)cc(-c2cc3cc(F)ccc3oc2=O)nc1NS(=O)(=O)c1ccccc1		turbidity	MTCC 282	1000 µg/mL
OB(O)c1c(F)cc(F)cc1F		turbidity		125 µg/mL
COc1ccc(-c2cc(-c3cc4cc(F)ccc4oc3=O)nc(NS(=O)(=O)c3ccccc3)c2C#N)cc1		turbidity	MTCC 282	100 µg/mL
COc1ccc(OC/C(=N/O)c2ccccc2)cc1	48 h	broth dilution	ATCC 16404	>125 µg/mL
COc1ccc(Br)cc1/C=N/NC(=O)Cc1cccc(Br)c1		MTT		>150 µM
COc1cc(/C=N/O)ccc1OP1(Oc2ccc(/C=N/OC(=O)c3ccccc3Cl)cc2OC)=NP(Oc2ccc(/C=N/O)cc2OC)(Oc2ccc(/C=N/OC(=O)c3ccccc3Cl)cc2OC)=NP(Oc2ccc(/C=N/OC(=O)c3ccccc3Cl)cc2OC)(Oc2ccc(/C=N/OC(=O)c3ccccc3Cl)cc2OC)=N1		agar diffusion / agar		>100 µg/mL
Cc1ccccc1C(=O)OC1CC(C)CCC1C(C)C				11.48 µM
COc1ccc(Br)cc1/C=N/NC(=O)Cc1ccc(C)cc1		MTT		>150 µM
CO/N=C/c1ccc(OP2(Oc3ccc(/C=N/OC)cc3OC)=NP(Oc3ccc(/C=N/OC)cc3OC)(Oc3ccc(/C=N/OC)cc3OC)=NP(Oc3ccc(/C=N/OC)cc3OC)(Oc3ccc(/C=N/OC)cc3OC)=N2)c(OC)c1		agar diffusion / agar		>100 µg/mL
CN(C)C(=S)N(C)C		visual reading	MTCC 1349	140 µg/mL
[Cl][Cu][Cl].c1ccc(CSc2cccc3cccnc23)nc1		broth dilution / visual reading		154 µM
OC(Cn1cncn1)(Cn1cncn1)c1ccc(F)cc1F		turbidity	MTCC 281	150 µg/mL
CCC(=O)OC1CC(C)CCC1C(C)C				7.41 µM
OB(O)c1ccccc1CN1CCOCC1		turbidity		250 µg/mL
COC(=O)/C=C/c1ccc(OC)cc1		broth dilution / resazurin	ATCC 16404	500 µg/mL
C[C@H]1N(C(=O)c2ccc(C(F)(F)F)cc2)CCO[C@@]1(Cn1cncn1)c1ccc(F)cc1F			Isolate 2	50 µg/mL
N#CSc1ccc2nc(N)sc2c1		broth dilution / visual reading	MTCC 282	500 µg/mL
CC(=O)O[C@H]1CC[C@@]2(C)C(=CCC3C4CCC(C(=O)/C=C/c5ccc(F)cc5F)[C@@]4(C)CCC32)C1		turbidity	MTCC 281	500 µg/mL
N=C(N)c1ccc(OCCCCCCOc2ccc(C(=N)N)cc2)cc1		agar diffusion / agar	As1	26 µg/mL
CCN(CC)c1ccc(/C=N/NC(=O)c2ccccc2F)c(O)c1		MTT / broth dilution		>50 µg/mL
OB1OC(N2CCOCC2)c2ccccc21		turbidity		7.8 µg/mL
COc1ccc(Br)cc1/C=N/NC(=O)Cc1cc2ccccc2cc1O		MTT		>150 µM
OB1OC(N2CCN(C3OB(O)c4ccccc43)CC2)c2ccccc21		turbidity		<0.9 µg/mL
COc1ccc(/C=C2/SC(=O)N(CC(=O)Nc3nc4ccc(SC#N)cc4s3)C2=O)cc1		broth dilution / visual reading	MTCC 282	1000 µg/mL
C[C@H]1[C@H](O)[C@@H](C)/C=C/C=C/C=C/C=C/C=C/C=C/C=C/[C@H](O[C@@H]2O[C@H](C)[C@@H](O)[C@H](N)[C@@H]2O)C[C@@H]2O[C@](O)(C[C@@H](O)C[C@@H](O)CC[C@H](O)[C@@H](O)C[C@@H](O)CC(=O)O[C@H]1C)C[C@H](O)[C@H]2C(=O)O		absorbance	ATCC 16404	0.5 µg/mL
N#Cc1c(-c2cccc(F)c2)cc(-c2cc3cc(F)ccc3oc2=O)nc1NS(=O)(=O)c1ccccc1		turbidity	MTCC 282	500 µg/mL
COc1cc(/C=N/O)ccc1OP1(Oc2ccc(/C=N/O)cc2OC)=NP(Oc2ccc(/C=N/O)cc2OC)(Oc2ccc(/C=N/O)cc2OC)=NP(Oc2ccc(/C=N/O)cc2OC)(Oc2ccc(/C=N/O)cc2OC)=N1		agar diffusion / agar		>100 µg/mL
COc1ccc(C2CC(Cc3ccc(CC(C)C)cc3)=Cc3[nH][nH]c(=O)c32)cc1		agar diffusion		50 µg/mL
N#Cc1c(-c2cccc([N+](=O)[O-])c2)cc(-c2cc3cc(F)ccc3oc2=O)nc1NS(=O)(=O)c1ccccc1		turbidity	MTCC 282	1000 µg/mL
CCOC(=O)C(C#N)C(c1cc2cc(OCC)ccc2n2nnnc12)P(=O)(OCC)OCC		agar diffusion	NCIM 545	10 µg/mL
C=C1C(=O)OC2C1CC=C(C)C1CCC(=C)C12		agar diffusion	MTCC 1344	125 µg/mL

The last 4 rows once more:

structure,setting,read by,strain or isolate,result
COc1ccc(C2CC(Cc3ccc(CC(C)C)cc3)=Cc3[nH][nH]c(=O)c32)cc1,,agar diffusion,,50 µg/mL
N#Cc1c(-c2cccc([N+](=O)[O-])c2)cc(-c2cc3cc(F)ccc3oc2=O)nc1NS(=O)(=O)c1ccccc1,,turbidity,MTCC 282,1000 µg/mL
CCOC(=O)C(C#N)C(c1cc2cc(OCC)ccc2n2nnnc12)P(=O)(OCC)OCC,,agar diffusion,NCIM 545,10 µg/mL
C=C1C(=O)OC2C1CC=C(C)C1CCC(=C)C12,,agar diffusion,MTCC 1344,125 µg/mL